Test results published in patent US20180228758A1, “COMPOSITIONS AND METHODS TO TREAT INFECTED EAR CONDITIONS” (published 2018).

Key:
[1] = tested on: exotoxin production (Staphylococcus aureus, Streptococcus pyogenes, Streptococcus agalactiae, groups C, F, and G streptococci, and Clostridium perfringens); assay: inhibition of exotoxin production in gram-positive bacteria; settings: independently from inhibition of growth; all gram-positive organisms tested
[2] = tested on: 54 strains of S. aureus; assay: bactericidal activity against 54 strains of S. aureus

## glycerol monolaurate
[1]
  exotoxin production: inhibited exotoxin production
[2]
  estimated chance of S. aureus developing resistance to GML: < 1/10
